Laboratory results: patent US9051591B2, “Bacterium of enterobacteriaceae family producing L-aspartic acid or L-aspartic acid-derived metabolites and a method for producing L-aspartic acid or L-aspartic acid-derived metabolites” (AJINOMOTO CO., INC., priority 2010, dated 2015)

Assays:
[1] = substrate: NC(=O)c1ccc[n+]([C@@H]2O[C@H](COP(=O)([O-])OP(=O)(O)OC[C@H]3O[C@@H](n4cnc5c(N)ncnc54)[C@H](O)[C@@H]3O)[C@@H](O)[C@H]2O)c1; assay: purified protein, by the assay type; conditions: other: Aspartate oxidative deamination; Michaelis-Menten plots
[2] = substrate: O=C(O)CC(=O)C(=O)O; assay: purified protein, by the assay type; conditions: other: Oxaloacetate reductive amination; Michaelis-Menten plots

B1: Ralstonia eutropha ADH-Re (Cupriavidus necator H16) (protein)
chain: MGSSHHHHHHSSGLVPRGSHMLHVSMVGCGAIGRGVMELLKSDPEVVFDVVIVPEHTMDEARDAVTALAPGARVATHLDDQRPDLLVECAGHHALEEHIVPALERGIPCMVVSVGALSEPGMAERLEAAARRGGTQVQLLSGAIGAIDALAAARVGGLDEVIYTGRKPARAWAGTPAEQLFDLDALTEATVIFEGTARDAARLYPKNANVAATVSLAGLGLDRTSVKLLADPHAVENVHHVEARGAFGGFELTMRGKPLAANPKTSALTVFSVVRALGNRAHAVSI
**Q.** What does the source list for B1?
**A.** kcat/Km [1]: 11700 M⁻¹ s⁻¹; Vmax [2]: 117 µmol/min/mg; kcat/Km [2]: 18300 M⁻¹ s⁻¹
